Test results from PMC2718843.

Molecular target: gp120 from CC101.19 cl.7 (HIV-1)

CD4-IgG2 (PRO542) (from UniProt P01730) (Fc fusion)
IC50 for inhibition of replication of the clonal virus in PBMC (p24 antigen); inhibits gp120-CD4 binding: 0.1 µg/mL
